# Only a part of the results on these compounds is given; other tests are left out.
# Amino acid sequences for entries named in this document (tags omitted). A change or cut given only in a name is not applied to a line headed by its entry.
# UniProt P04925, whole entry, looked up, stated change not applied: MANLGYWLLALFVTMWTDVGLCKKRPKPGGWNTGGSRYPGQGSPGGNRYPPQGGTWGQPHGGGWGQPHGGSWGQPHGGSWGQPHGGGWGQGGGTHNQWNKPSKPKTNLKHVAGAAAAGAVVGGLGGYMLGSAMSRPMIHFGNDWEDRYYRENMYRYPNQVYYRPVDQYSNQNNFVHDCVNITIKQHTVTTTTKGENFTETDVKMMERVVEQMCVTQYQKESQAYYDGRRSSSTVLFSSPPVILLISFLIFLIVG
# Biological target: ΔCR PrP (Mus musculus, UniProt P04925, DEL105-125)
compound,measurement,value
C[n+]1ccc(C2=C3C=CC(=N3)C(c3cc[n+](C)cc3)=c3ccc4[n]3[Fe+][n]3c2ccc3C(c2cc[n+](C)cc2)=C2C=CC(=N2)C=4c2cc[n+](C)cc2)cc1 [Fe(III)-TMPyP],IC50,1700 nM

# Reference: PMC4791597 (Scientific Reports, 2016)
